We go through 2 molecules from article PMC6375650 (PLoS Biology, 2019).

This assay deals with H7 Sh2 HA (A/Shanghai/2/2013), ectodomain trimer, cleavage state not stated (Influenza A virus A/Shanghai/2/2013 …, UniProt R4NN21, strain, biotin (HAs biotinylated for biolayer interferometry)). Description: BLI. The note with it: both partners purified.

B1: H7.5 Fab H-S74K (Fab, V domains shown)
VH: QVQLVQSGAEVKKPGASVKVSCKASGYTLTRYYFHWVRQAPGQGFEWMGIINPNGGGTSYAQKFGDRVIMTSDMKTSTIYMELSSLRSEDTAVYYCARDMPYYHDSGGPLFDLWGQGTLVTVSS
VL: EIVMTQSPSSLSASVGDRVTITCRPSQSISTFLNWYEQKPGKAPKLLIYDASSLQSGVPSRFSGSGSGTEFTLTISSLQPEDFATYYCQQSFSTPYTFGQGTRLEIK
With B1, the binding result is given as “binds”.

B2: H7.5 Fab H-M73R (Fab, V domains shown)
VH: QVQLVQSGAEVKKPGASVKVSCKASGYTLTRYYFHWVRQAPGQGFEWMGIINPNGGGTSYAQKFGDRVIMTSDRSTSTIYMELSSLRSEDTAVYYCARDMPYYHDSGGPLFDLWGQGTLVTVSS
VL: EIVMTQSPSSLSASVGDRVTITCRPSQSISTFLNWYEQKPGKAPKLLIYDASSLQSGVPSRFSGSGSGTEFTLTISSLQPEDFATYYCQQSFSTPYTFGQGTRLEIK
B2: the binding result is “binds”.
